For this data set, the system named is T1, HpyC1I restriction endonuclease (Helicobacter pylori).
T1 sequence: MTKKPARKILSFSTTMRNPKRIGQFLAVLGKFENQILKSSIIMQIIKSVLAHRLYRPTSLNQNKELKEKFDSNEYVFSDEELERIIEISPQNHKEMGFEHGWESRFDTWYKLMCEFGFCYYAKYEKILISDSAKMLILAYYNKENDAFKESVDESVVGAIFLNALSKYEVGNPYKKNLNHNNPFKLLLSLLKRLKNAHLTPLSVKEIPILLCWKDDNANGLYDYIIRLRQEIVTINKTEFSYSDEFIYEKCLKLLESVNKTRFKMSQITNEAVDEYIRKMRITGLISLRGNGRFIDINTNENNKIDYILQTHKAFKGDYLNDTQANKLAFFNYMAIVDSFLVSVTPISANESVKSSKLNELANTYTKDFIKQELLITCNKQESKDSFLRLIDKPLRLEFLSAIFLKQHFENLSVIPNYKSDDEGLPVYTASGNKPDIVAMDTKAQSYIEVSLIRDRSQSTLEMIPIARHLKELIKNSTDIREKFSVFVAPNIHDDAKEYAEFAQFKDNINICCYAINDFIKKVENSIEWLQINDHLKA
As to the kind of experiment: enzyme reaction in vitro. Particulars: 10 mM Bis Tris Propane-HCl, 10 mM MgCl2, 1 mM DTT pH 7.0, 100 ug/ml BSA, 37 C; about 60 ng protein digests lambda DNA in 1 h; one-base 5' overhang; 10 junctions sequenced; purified recombinant protein; only the motif is given.

Construct, isoform or probe ends are uncertain for at least one entry. Tags and fusion partners may be left off the protein sequences shown.

In the case of “CCATC (double strand) [HpyC1I recognition site in lambda DNA]”, the “activity on this sequence” value was “active”.

Source of the values: patent US20050202443.
